Test results: patent US20050267156A1, “Broadspectrum 2-amino-benzothiazole sulfonamide hiv protease inhibitors” (Tibotec Pharmaceuticals Ltd., priority 2002, published 2005)

Legend:
Type in all cases: cell-based
mutant HIV strain F = assay: microbe, parasite or virus in culture; conditions: for fold resistance Strain F: FR=EC50 (mutant strain)/EC50 (HIV-1 strain LAI)
Description: (§1) HIV- or mock-infected MT4 cells were incubated for five days in the presence of various concentrations of the inhibitor. […] Cell viability is measured by measuring the concentration of MTT, a yellow, water soluble tetrazolium dye that is converted to a purple, water insoluble formazan in the mitochondria of living cells only. Upon solubilization of the resulting formazan crystals with isopropanol, the absorbance of the solution is monitored at 540 nm. The values correlate directly to the number of living cells remaining in the culture at the completion of the five-day incubation. The inhibitory activity of the compound was monitored on the virus-infected cells and was expressed as EC50 and EC90. These values represent the amount of the compound required to protect 50% and 90%, respectively, of the cells from the cytopathogenic effect of the virus. […] The selectivity index (SI) (ratio CC50/EC50) is an indication of the selectivity of the anti-HIV activity of the inhibitor. Wherever results are reported as e.g. pEC50 or pCC50 values, the result is expressed as the negative logarithm of the result expressed as EC50 or CC50 respectively.

mutant HIV strain D = conditions: FR=EC50 (mutant strain)/EC50 (HIV-1 strain LAI)
Description: as §1

mutant HIV strain E = conditions: FR=EC50 (mutant strain)/EC50 (HIV-1 strain LAI)
Description: as §1

mutant HIV strain A = conditions: FR=EC50 (mutant strain)/EC50 (HIV-1 strain LAI)
Description: as §1

mutant HIV strain B = conditions: FR=EC50 (mutant strain)/EC50 (HIV-1 strain LAI)
Description: as §1

mutant HIV strain C = conditions: FR=EC50 (mutant strain)/EC50 (HIV-1 strain LAI)
Description: as §1

Row | SMILES | fold resistance Strain F (mutant HIV strain F) | fold resistance Strain D (mutant HIV strain D) | fold resistance Strain E (mutant HIV strain E) | fold resistance Strain A (mutant HIV strain A) | fold resistance Strain B (mutant HIV strain B) | fold resistance Strain C (mutant HIV strain C) | EC50 (mutant HIV strain F; Human immunodeficiency virus 1, MT4, read-out: pEC50 Strain F, mutant HIV strain F, MT4 cells (converted)) [µM]
1 | CNc1nc2ccc(S(=O)(=O)N(CC(C)C)C[C@@H](O)[C@H](Cc3ccccc3)NC(=O)OCc3cncs3)cc2s1 [Compound 18, {(1S,2R)-1-benzyl-2-hydroxy-3-[isobutyl-(2-methylamino-benzothiazole-6-sulfonyl)-amino]-propyl}-carbamic acid thiazol-5-ylmethyl ester] | 77.6 | 11.2 | 4.8 | 16.2 | 3.2 | 3.9 | 
2 | CNc1nc2ccc(S(=O)(=O)N(CC(C)C)C[C@@H](O)[C@H](Cc3ccccc3)NC(=O)OCc3cncs3)cc2s1.O=C(O)C(F)(F)F [Compound 19, {(1S,2R)-1-benzyl-2-hydroxy-3-[isobutyl-(2-methylamino-benzothiazole-6-sulfonyl)-amino]-propyl}-carbamic acid thiazol-5-ylmethyl ester trifluoroacetate] | 51.3 | 12.0 | 4.1 | 14.1 | 5.1 | 4.3 | 
3 | CNc1nc2ccc(S(=O)(=O)N(CC(C)C)C[C@@H](O)[C@H](Cc3ccccc3)NC(=O)c3cccc(N)c3C)cc2s1.O=C(O)C(F)(F)F [Compound 20, 3-amino-N-{(1S,2R)-1-benzyl-2-hydroxy-3-[isobutyl-(2-methylamino-benzothiazole-6-sulfonyl)-amino]-propyl}-2-methyl-benzamide trifluoroacetate] | 158.5 | 8.7 | 5.4 | 66.1 | 5.1 | 8.3 | 
4 | CNc1nc2ccc(S(=O)(=O)N(CC(C)C)C[C@@H](O)[C@H](Cc3ccccc3)NC(=O)c3cccc(O)c3C)cc2s1.O=C(O)C(F)(F)F [Compound 23, N-{(1S,2R)-1-benzyl-2-hydroxy-3-[isobutyl-(2-methylamino-benzothiazole-6-sulfonyl)-amino]-propyl}-3-hydroxy-2-methyl-benzamide trifluoroacetate] | 1380.4 | 4.7 | 1.6 | 63.1 | 2.1 | 1.9 | 6.31
